{
  "source": "paper PMC3656124",
  "about": "“DNA Topoisomerase II Is Involved in Regulation of Cyst Wall Protein Genes and Differentiation in Giardia lamblia” (PLoS Neglected Tropical Diseases, 2013)",
  "molecular_target": "T1, Topo IIC (UniProt E2RU90)",
  "T1 sequence (looked up, limits assumed)": "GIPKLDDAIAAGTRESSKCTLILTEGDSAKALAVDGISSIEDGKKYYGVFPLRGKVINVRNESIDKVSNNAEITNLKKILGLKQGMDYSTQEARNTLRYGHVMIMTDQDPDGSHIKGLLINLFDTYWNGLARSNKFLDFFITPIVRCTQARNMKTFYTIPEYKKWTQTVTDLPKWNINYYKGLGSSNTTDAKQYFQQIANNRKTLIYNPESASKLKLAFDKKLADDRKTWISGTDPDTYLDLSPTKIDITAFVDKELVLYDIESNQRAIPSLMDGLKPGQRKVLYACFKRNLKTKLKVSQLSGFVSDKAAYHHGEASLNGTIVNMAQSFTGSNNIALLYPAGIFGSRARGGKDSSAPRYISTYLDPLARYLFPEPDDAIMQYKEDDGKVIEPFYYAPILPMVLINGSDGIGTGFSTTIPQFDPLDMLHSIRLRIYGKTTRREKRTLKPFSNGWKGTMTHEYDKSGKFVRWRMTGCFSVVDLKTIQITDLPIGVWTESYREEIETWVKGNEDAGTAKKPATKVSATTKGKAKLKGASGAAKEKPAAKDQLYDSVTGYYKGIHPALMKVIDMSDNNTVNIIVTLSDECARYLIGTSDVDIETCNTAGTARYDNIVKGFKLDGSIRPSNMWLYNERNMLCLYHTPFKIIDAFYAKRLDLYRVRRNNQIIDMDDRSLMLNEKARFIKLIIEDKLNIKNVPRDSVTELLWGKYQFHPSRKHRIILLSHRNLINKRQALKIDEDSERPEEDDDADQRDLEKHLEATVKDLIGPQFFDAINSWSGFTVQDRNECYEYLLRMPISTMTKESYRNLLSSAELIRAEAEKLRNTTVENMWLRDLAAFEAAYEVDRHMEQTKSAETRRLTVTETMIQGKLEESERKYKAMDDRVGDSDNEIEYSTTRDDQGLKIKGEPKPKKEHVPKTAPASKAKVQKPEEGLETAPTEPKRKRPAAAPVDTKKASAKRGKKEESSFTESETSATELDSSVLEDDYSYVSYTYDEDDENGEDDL",
  "assay": "EMSA",
  "conditions": "EMSA: 0.02 pmol 5'-labeled probe, 5 ng protein, 20 ul, 0.5 ug poly(dI-dC), 15 min, room temperature, 6% acrylamide gel; salt and pH only by citation; recombinant protein; protein details: C-terminal V5-His; label: 5'-32P",
  "note": "For at least one entry, the source does not settle the construct or the ends of the probe. At least one verdict was read from the data and is not stated in words by the source. Where a protein sequence is shown, tags need not be part of it.",
  "data": [
    {"sequence": "GGGGCAGGGGCCACAGCAGGGGACCCTCTA (double strand) [137620vsp-30/-1]", "values": [
      {"measurement": "binding result", "value": "binds"}
    ]}
  ]
}
